In PubChem BioAssay AID1053175 (ICCB-Longwood Screening Facility, Harvard Medical School, 2014):
The list shows a part of the results, in another mix than the full data. Calls of active or inactive are those of the source.

Experiment: antibacterial activity against Escherichia coli – OD600, primary screen (AID 1053175)
Settings: Escherichia coli growth, OD600, 23 h; stronger effect = lower value

SMILES	OD600 absorbance
O=P(Nc1nc2ccccc2s1)(c1ccccc1)c1ccccc1	inactive: 0.711
CCN(C(=NP(=O)(N1CCOCC1)N1CCOCC1)N1CCOCC1)c1ccc(OC)cc1	inactive: 0.689
COc1ccc(NP(C)(=O)Oc2ccccc2OC)cc1 (configuration not stated)	inactive: 0.705
O=[N+]([O-])c1ncn(CCn2cnc([N+](=O)[O-])n2)n1	inactive: 0.707
O=[N+]([O-])c1ccc(OP2(=O)COCCO2)cc1 (configuration not stated)	inactive: 0.676
CC(=O)NC(SC(=S)N(C)C)C(Cl)(Cl)Cl (configuration not stated)	inactive: 0.594
O=[As](O)(c1ccccc1)c1ccc(O)cc1	inactive: 0.674
O=[N+]([O-])c1cc([N+](=O)[O-])c(NCC2CCS(=O)(=O)C2)c([N+](=O)[O-])c1 (configuration not stated)	inactive: 0.653
Cc1cc(-c2cccc3ccccc23)c(C)cn1.O=[N+]([O-])c1cc([N+](=O)[O-])c(O)c([N+](=O)[O-])c1	inactive: 0.683
CN(C(=O)Cc1ccc(Cl)c(Cl)c1)C1CC[C@@]2(CCCO2)CC1N1CCCC1 (some centres not stated)	inactive: 0.706
O=[N+]([O-])c1ccc(O)c(C=NNc2ccc([N+](=O)[O-])cc2[N+](=O)[O-])c1	inactive: 0.622
Cc1c(C(c2ccc3c(c2)OCO3)c2c(C)n(C)n(-c3ccccc3)c2=O)c(=O)n(-c2ccccc2)n1C.O=[N+]([O-])c1cc([N+](=O)[O-])c(O)c([N+](=O)[O-])c1	inactive: 0.696
Nc1ccc([As](=O)(O)c2ccc([N+](=O)[O-])cc2)cc1	inactive: 0.655
C(Cc1nn[nH]n1)Cc1nn[nH]n1	inactive: 0.698
O=C(OC1CN2CCC1CC2)c1cccc(Cl)c1 (configuration not stated)	inactive: 0.716
O=C(NC1CCS(=O)(=O)C1)NP(=S)(Oc1ccccc1)Oc1ccccc1 (configuration not stated)	inactive: 0.654
c1ccc(-c2nn[nH]n2)c(-c2nn[nH]n2)c1	inactive: 0.667
Cc1ccc(NP(=O)(Oc2cccc(C)c2)Oc2cccc(C)c2)nc1	inactive: 0.699
O=P1(N(CCCl)CCCl)OCCC2CCCCN21 (configuration not stated)	inactive: 0.687
CCOC(=O)c1ccc(NP(C)(=O)Oc2ccc(F)cc2)cc1 (configuration not stated)	inactive: 0.656
COc1ccc(OP(C)(=O)Nc2ccc(SC(F)(F)F)cc2)cc1 (configuration not stated)	inactive: 0.657
Cc1c([N+](=O)[O-])cc([N+](=O)[O-])c(Br)c1[N+](=O)[O-]	inactive: 0.686
COC(=O)c1cc2c(s1)N=C(c1ccccc1)N(C)P2(=O)N1CCOCC1 (configuration not stated)	inactive: 0.712
Cc1ccc(OP(=O)(Nc2ccccn2)Oc2ccc(C)cc2)cc1	inactive: 0.679

SMILES	OD600 absorbance
CC(=O)NC(SC(=S)N(CC(C)C)CC(C)C)C(Cl)(Cl)Cl (configuration not stated)	inactive: 0.683
O=C(OC1CN2CCC1CC2)c1ccccc1 (configuration not stated)	inactive: 0.647
CC1OP(=O)(Oc2ccccc2)CC2OC12 (configuration not stated)	inactive: 0.706
CCN(CC)CCCOC(=O)C(O)(c1ccccc1)C1CCCCC1 (configuration not stated)	inactive: 0.733
CCC(=O)N1C2C3N(C(=O)CC)C1C1N(C(=O)CC)C(C(N1C(=O)CC)N3C(=O)CC)N2C(=O)CC	inactive: 0.712
CP(=O)(Nc1ccccc1)Oc1ccc(F)cc1 (configuration not stated)	inactive: 0.679
Cc1ccccc1OP(=O)(Nc1ccccn1)Oc1ccccc1C	inactive: 0.681
CC(NC(=O)COC(=O)C(O)(c1ccccc1)c1ccccc1)c1ccccc1 (configuration not stated)	inactive: 0.692
CN(C)C(=O)Oc1noc2ccccc12	inactive: 0.66
O=[N+]([O-])c1cc([N+](=O)[O-])c(OC2CCCCC2O)c([N+](=O)[O-])c1 (configuration not stated)	inactive: 0.668
CN(C(=O)Cc1ccccc1)C1CC[C@]2(CCCO2)CC1N1CCCC1 (some centres not stated)	inactive: 0.732
O=P1(Nc2nc3ccc(Cl)cc3s2)COc2ccccc2O1 (configuration not stated)	inactive: 0.683
CCOc1ccc(C2=NCC(CBr)S2)cc1 (configuration not stated)	inactive: 0.687
CCc1cc(O)c([N+](=O)[O-])c(C)c1[N+](=O)[O-]	inactive: 0.615
CP(=O)(Nc1ccccc1F)Oc1ccccc1 (configuration not stated)	inactive: 0.699
CC(C)(C)C(=O)NC(Sc1ccccc1)C(Cl)(Cl)Cl (configuration not stated)	inactive: 0.679
NC(=NO)c1c(N)no[n+]1[O-]	inactive: 0.742
CC(=O)c1ccc(N2CC2c2ccncc2)cc1 (configuration not stated)	inactive: 0.647
O=C(OC1CN2CCC1CC2)c1ccc([N+](=O)[O-])cc1 (configuration not stated)	inactive: 0.652
Cc1ccccc1CN(C)C(=O)COC(=O)C(O)(c1ccccc1)c1ccccc1	inactive: 0.658
O=C(OCCN1CCN(CCOCc2ccccc2)CC1)C(O)(c1ccccc1)c1ccccc1	inactive: 0.7
CC(=O)Nc1ccc([As](=O)(O)O)c(O)c1	inactive: 0.721
CC(=O)Nc1ccc(Oc2c([N+](=O)[O-])cc([N+](=O)[O-])cc2[N+](=O)[O-])cc1	inactive: 0.674
